In patent US20110306541A1, “METHODS FOR TREATING HCV” (priority 2010, published 2011):

Tested on: HCV genotype 1b replicon cells (Huh-luc)
Assay: EC50 determinations in Huh-luc replicon cells (Biological Example 2)
Format: cell-based
Details: 3 days, Units per milliliter
Description: Compounds were serially diluted 1:3 in 100% DMSO (Sigma). These serial dilutions were added to the cells at a 1:200 dilution to achieve a final concentration of 0.5% DMSO in a total volume of 200 μL. Plates were incubated at 37° C. for 3 days, after which culture media were removed and cells were lysed and assayed for luciferase activity using a commercial luciferase assay (Promega, Madison, Wis.). HCV replication levels in drug-treated samples were expressed as a percentage of those in untreated controls (defined as 100%), and data were fit to the logistic dose response equation y=a/(1+(x/b)^c) using XLFit4 software (IDBS, Emeryville, Calif.). EC50 values were calculated from the resulting equations as described previously.

IFN-α
EC50: 0.105 ± .003 (U/mL)^b
